# PubChem BioAssay AID624099 – ICCB-Longwood, 2012
# Test: 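Host factors E2 relies on to silence an HPV18 LCR reporter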 (primary screen)
# Cells: human C33A cervical carcinoma cells (HPV-negative) stably expressing BPV1 E2 and an HPV18 LCR luciferase reporter
# Knock-down reagent: siRNA pool against human genes, 40 nM
# Duration: 72 h
# Detection: 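HPV18 LCR reporter light per well, converted to plate-wise z-scores that exclude control wells, and averaged over triplicate plates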
# Reading the numbers: mean z-score and z-score: higher = stronger reporter signal, weaker E2 silencing
# Active means: 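Mean z ≥ 2 together with z ≥ 2 in two or more of the three replicates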
# This is one part, drawn at random, of about 21,000 deposited reagents. 497 of them (2.4%) count as active. 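Higher z means weaker E2 silencing; only reporter increases were scored, and knock-downs that hurt cell survival may mask genuine repressor factors.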 Reagents against one gene are numbered here.
gene,pool no.,mean z-score,"z-score, replicate A","z-score, replicate B","z-score, replicate C",call
PARP16 (GeneID 54956),1,0.11,0.05,0.11,0.19,inactive
C19orf48P (GeneID 84798),1,0.05,0.03,-0.39,0.52,inactive
PCK1 (GeneID 5105),1,-2,-1.9,-2.19,-1.91,inactive
TMEM233 (GeneID 387890),1,-0.24,-0.21,-0.16,-0.36,inactive
LOC389059 (retired record) (GeneID 389059),1,0.43,0.31,0.37,0.62,inactive
CKS1B (GeneID 1163),1,-0.82,-1.2,-0.58,-0.67,inactive
LYPLA2 (GeneID 11313),1,0,0.19,0.12,-0.3,inactive
NME1 (GeneID 4830),1,-0.81,-0.82,-0.98,-0.64,inactive
OR7E156P (GeneID 283491),1,0.26,0.2,0.65,-0.08,inactive
AIDA (GeneID 64853),1,0.28,0.11,0.49,0.24,inactive
EEF1B2P6 (GeneID 647030),1,-0.37,-0.21,-0.46,-0.43,inactive
DDX54 (GeneID 79039),1,-1.24,-1.39,-1.11,-1.21,inactive
IL1B (GeneID 3553),1,-0.16,-0.07,-0.2,-0.21,inactive
ETNK1 (GeneID 55500),1,-0.33,-0.14,-0.73,-0.12,inactive
PDPR2P (GeneID 283922),1,-1.11,-1,-0.93,-1.41,inactive
KCTD14 (GeneID 65987),1,-0.97,-0.81,-0.95,-1.15,inactive
MICA (GeneID 100507436),1,-0.36,-0.05,-0.37,-0.67,inactive
LOC390705 (GeneID 390705),1,-0.35,-0.84,-0.23,0.03,inactive

2 of these entries in another layout:
| gene | pool no. | mean z-score | z-score, replicate A | z-score, replicate B | z-score, replicate C | call |
| --- | --- | --- | --- | --- | --- | --- |
| MICA (GeneID 100507436) | 1 | -0.36 | -0.05 | -0.37 | -0.67 | inactive |
| LOC390705 (GeneID 390705) | 1 | -0.35 | -0.84 | -0.23 | 0.03 | inactive |

More entries follow:
gene,pool no.,mean z-score,"z-score, replicate A","z-score, replicate B","z-score, replicate C",call
CA6 (GeneID 765),1,0.1,0.24,-0.03,0.1,inactive
GALNT10 (GeneID 55568),1,1.46,1.3,1.64,1.45,inactive
DIP2B (GeneID 57609),1,1.81,1.91,1.48,2.04,inactive
COX4I1P1 (GeneID 122867),1,-1.69,-1.86,-1.39,-1.82,inactive
PHACTR3 (GeneID 116154),1,0.87,0.78,1.21,0.64,inactive
COXFA4L2 (GeneID 56901),1,-0.56,-0.7,-0.51,-0.45,inactive
CASZ1 (GeneID 54897),1,0.08,0.36,-0.15,0.03,inactive
CASZ1 (GeneID 54897),2,0.95,0.94,1.19,0.73,inactive
LPIN1 (GeneID 23175),1,-0.59,-0.57,-0.93,-0.28,inactive
CISH (GeneID 1154),1,0.07,0.19,0.17,-0.14,inactive
P2RY1 (GeneID 5028),1,-0.02,-0.25,0.12,0.07,inactive
HOPX (GeneID 84525),1,-1.36,-1.29,-1.48,-1.31,inactive
RPS15P4 (GeneID 401019),1,-2.91,-2.68,-3.03,-3.04,inactive
USP21 (GeneID 27005),1,-0.02,-0.06,0.15,-0.13,inactive
MSANTD2 (GeneID 79684),1,0.02,-0.57,-0.51,1.14,inactive
MLPH (GeneID 79083),1,-1.35,-1.64,-1.5,-0.9,inactive
PRSS42P (GeneID 339906),1,0.34,0.35,0.04,0.62,inactive
MKX (GeneID 283078),1,-0.21,,0.03,-0.44,inactive
FETUB (GeneID 26998),1,-0.19,-0.58,-0.32,0.33,inactive
HMHB1 (GeneID 57824),1,0.04,-0.14,0.07,0.19,inactive
UBE2E4P (GeneID 286480),1,-0.2,-0.37,-0.29,0.05,inactive
